PubChem BioAssay AID1259414, Drosophila RNAi Screening Center | 2018
The screen tested about 24,000 reagents; shown is an unselected part of those that have a named target and a result. Over the whole deposit, about 1,210 (5%) got an active call. 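Inactive calls also include excluded dsRNAs with several or no targets, genes unexpressed in JW18, and well A1, regardless of score.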 Unmarked entries are inactive. Reagent sequences are not shown.

Screen: 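Fly genes that alter Wolbachia amount inside host cells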 (primary screen)
Cell system: Drosophila JW18 cells infected with Wolbachia
Reagent: long dsRNA against Drosophila genes, 0.25 µg dsRNA per well of a 384-well plate
Time to read-out: 5 days
Treatment: cells persistently infected with Wolbachia before knock-down; no added drug
Read-out: 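Automated imaging of bacterial rRNA staining divided by host cell count, reported as plate-normalised robust z-score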
Scale: Wolbachia per cell robust z: higher = more Wolbachia per host cell than the plate typical
Rule for the call: 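Hit when robust z is 1.5 or more, or -1.5 or less, in at least two of three replicates; excludes dsRNAs with several or no targets, genes not expressed in JW18 and well A1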

no.	Target gene	dsRNA	Wolbachia per cell robust z, rep 1	Wolbachia per cell robust z, rep 2	Wolbachia per cell robust z, rep 3
1	Sfp60F	DRSC40629	-0.416	0.0611	0.169
2	Nrd1	DRSC19830	0.487	0.215	0.982
3	CG11279	DRSC09837	0.555	0.79	-0.262
4	Cyp312a1	DRSC11128	0.503	0.411	0.811
5	Cyp312a1	DRSC24814	0.208	-0.773	0.0517
6	rictor	DRSC20071	-1.39	-0.96	-0.194
7	Max	DRSC11218	0.665	-4.12	-0.0783
8	Mctp	DRSC06510	-0.172	-1.05	0.368
9	Mctp	DRSC22896	0.252	-4.01	1.12
10	Mctp	DRSC25505	-0.174	-0.849	0.111
11	Mctp	DRSC28921	-1.46 (active)	-3.44	-1.9
12	okr	DRSC00834	0.281	0.642	0.0405
13	okr	DRSC24838	0.78	0.995	0.87
14	CG34429	DRSC10120	0.662	0.894	1.27
15	Karl	DRSC19883	-3.7	-0.2	-1.22
16	CCHa1	DRSC24978	1.25	1.27	-0.0841
17	CG10602	DRSC02075	-0.689 (active)	-10	-9
18	CG15611	DRSC06563	0.0977	-1.15	1.46
19	CG15611	DRSC06564	0.227	-1.22	0.781
20	CG12182	DRSC08142	0.053	-1.55	-0.247
21	Pino	DRSC00038	0.0954	0.755	0.821
22	Pino	DRSC00662	-0.488	-6.03	0.295
23	CG5569	DRSC04514	0.785	-0.518	0.668
24	mmd	DRSC19673	-0.732	-0.843	0.462
25	mmd	DRSC20161	-3.7 (active)	0.166	-3.23
26	mmd	DRSC23042	-3.7	-0.0261	-1.53
27	l(1)G0004	DRSC20486	-0.178	1.82	0.478
28	spdo	DRSC13988	0.0291	-0.72	0.11
29	spdo	DRSC24230	0.922	0.871	-0.327
30	cn	DRSC07594	0.249	1.04	0.412
31	CG4168	DRSC01447	-11	-2.92	-0.0938
32	CG4168	DRSC01933	0.704	-0.547	0.112
33	CG4168	DRSC21319	0.531	0.647	0.574
34	CG4168	DRSC22789	0.0837	-1	-1.13
35	Nep1	DRSC18388	-0.458	-0.507	0.19
36	Nep1	DRSC26208	1.15	-0.591	-0.0806
37	Ugt37E1	DRSC02248	-0.901	-2.76	-0.413
38	Ugt37E1	DRSC24769	-0.0873	-0.338	0.435
39	Ets97D	DRSC16665	0.597	0.397	0.964
40	Ets97D	DRSC27682	0.244	-2.83	0.356
41	Usp1	DRSC14155	0.799	-9.57	0.809
42	brat	DRSC03497	1.84	1.69	0.859
43	brat	DRSC36513	-0.167	-1.47	-0.729
44	brat	DRSC37393	0.9	-0.109	0.704
45	brat	DRSC40657	0.123	1.14	0.896
46	mbt	DRSC23020	-0.186	-0.0237	-0.588
47	mbt	DRSC25818	-2.26	-0.991	-1.15
48	Cyp6d2	DRSC04606	0.195	-0.0296	-0.399
49	Cyp6d2	DRSC25647	1.46	0.358	0.346
50	CG13594	DRSC23254	0.814	0.321	-2.39
51	CG13594	DRSC27243	-2.42	-0.521	-0.0169
52	Vps45	DRSC16398	0.297	-0.124	-4.56
53	Klp31E	DRSC03354	0.344	0.172	0.198
54	Roe1	DRSC07534	-0.133 (active)	-2.63	-6.3
55	Roe1	DRSC26435	-9.49	1.21	1.21
56	Roe1	DRSC38972	-0.0533	0.853	0.546
57	CarT	DRSC03196	-4.16	-0.639	-0.413
58	CarT	DRSC27070	0.4	0.83	0.925
59	heix	DRSC03542	-0.0539	-0.2	0.621
60	CG31957	DRSC00207	0.72	0.419	0.758
61	CG4408	DRSC15574	-13.1	0.167	-0.997
62	Klp59D	DRSC04118	-3.47	0.473	0.43
63	Klp59D	DRSC24436	-0.81	-0.0561	0.0527
64	Klp59D	DRSC39041	0.828	0.901	-0.0169
65	Fit1	DRSC08450	2.31 (active)	2.37	1.35
66	Fit1	DRSC24407	1.81	0.775	0.113
67	CG31115	DRSC13692	0.354	-0.119	0.722
68	CG31115	DRSC26097	-0.572	-0.746	0.276

Look-ups from the entries so far:
For “Wolbachia per cell robust z, rep 2”, mbt [DRSC25818] is entered as -0.991
Klp59D [DRSC39041], Wolbachia per cell robust z, rep 3: -0.0169
Karl [DRSC19883], Wolbachia per cell robust z, rep 2 = -0.2
Under “Wolbachia per cell robust z, rep 3”, Ets97D [DRSC16665] shows 0.964
For “Wolbachia per cell robust z, rep 3”, Vps45 [DRSC16398] is entered as -4.56
Fit1 [DRSC24407], Wolbachia per cell robust z, rep 3 → 0.113
